Pooled drug test results. Numbers come from NIAID ChemDB, via PubChem.

Common to all: target-level tests; species: HIV-1; protein: Reverse transcriptase

Two numbers with a dash give a range or band. An empty or dashed field is not shown. Rows are shuffled and stem from different studies. ICn is the concentration giving n% inhibition.

SMILES | read-out | strain or isolate | read by | changes | result
CCN1c2ncc(CCOc3ccc(C(=O)NCC(CC)(CC)C(=O)O)cc3C)cc2C(=O)N(C)c2cccnc21 | IC50 | IIIB | nucleotide incorporation / radiometric | RT-K103N Y181C | <0.05 µM
CCN1c2ncc(CCc3ccnc(C(=O)OC)c3)cc2C(=O)N(C)c2ccc(Cl)nc21 | IC50 | - | nucleotide incorporation / radiometric | RT-Y181C | <1 µM
CCN1c2ncc(CCOc3cccc4c3ccc[n+]4[O-])cc2C(=O)Nc2c(C)cc(Cl)nc21 | IC50 | RT -K103N | nucleotide incorporation / radiometric | RT-K103N | 0.025 µM
COC(=O)NCCCCNc1nc(Cc2ccccc2)c(C)c(=O)[nH]1 | Ki | - | - | RT-V106A | >1000 µM
NC(=O)c1[nH]c2ccc(Cl)cc2c1S(=O)(=O)c1ccccc1 | IC50 | WT | nucleotide incorporation / radiometric | - | 0.001 µM
CCN1c2ncc(CCOc3ccc(-c4ccc(C(=O)O)cn4)cc3C)cc2C(=O)N(C)c2cccnc21 | IC50 | IIIB | nucleotide incorporation / radiometric | RT-K103N Y181C | <0.05 µM
Cc1c(Cc2ccccc2)nc(SCCCCO)[nH]c1=O | Ki | - | - | RT-K103N | 83 µM
CCN1c2ncc(CCOc3ccc(CC(=O)O)c4ccccc34)cc2C(=O)N(C)c2ccc(C)nc21 | IC50 | - | nucleotide incorporation / radiometric | RT-V106A | >1 µM
O=C(O)CCNC(=O)c1ccc(NC(=O)CSc2nnc(Br)n2-c2ccc(C3CC3)c3ccccc23)c(Cl)c1 | IC50 | - | nucleotide incorporation / radiometric | RT-Y181C | <0.05 µM
Cc1cc(C)cc(S(=O)(=O)c2c(C(N)=O)[nH]c3ccc(Cl)cc23)c1 | IC50 | - | nucleotide incorporation / radiometric | RT-V106A | 0.09 µM
CCc1cc(CCc2nc3ccccc3o2)c(=O)[nH]c1C | IC50 | - | nucleotide incorporation | RT-Y181C | 8.72 µM
Cc1cc(S(N)(=O)=O)ccc1NC(=O)COc1ccccc1C(=O)c1cc(Cl)cc(C#N)c1 | IC50 | NNRTI-resistant | nucleotide incorporation / radiometric | RT-Y181C | 0.0059 µM
CCN1c2ncc(CCOc3ccc(-c4ccc(F)c(C(=O)O)c4)cc3)cc2C(=O)N(C)c2cccnc21 | IC50 | IIIB | nucleotide incorporation / radiometric | - | <0.05 µM
CCc1ccc(-n2c(Br)nnc2SCC(=O)Nc2ccc(C(=O)NCC(=O)O)cc2Cl)c2ccccc12 | IC50 | - | nucleotide incorporation / radiometric | - | <0.05 µM
CCN1c2ncc(CCOc3ccc(-c4cc(C)nc(C)c4)cc3C)cc2C(=O)N(C)c2cccnc21 | IC50 | IIIB | nucleotide incorporation / radiometric | - | <0.05 µM
O=C(CSc1nnc(Br)n1-c1ccc(C2CC2)c2ccccc12)Nc1ccc(C(=O)O)cc1Cl | IC50 | - | nucleotide incorporation / radiometric | - | <0.05 µM
CCN1c2ncc(CCOc3ccc(-c4cc(Cl)c(C(=O)O)cc4F)cc3C)cc2C(=O)N(C)c2cccnc21 | IC50 | IIIB | nucleotide incorporation / radiometric | RT-K103N Y181C | <0.05 µM
CCN1c2ncc(CCOc3ccc(/C=C(\C)C(=O)O)c4ccccc34)cc2C(=O)N(C)c2ccc(F)nc21 | IC50 | - | nucleotide incorporation / radiometric | RT-V106A | >1 µM
O=C(CSc1nnc(Br)n1-c1ccc(C2CC2)c2ccccc12)Nc1ccc(C(=O)N[C@@H](Cc2ccc(O)cc2)C(=O)O)cc1Cl | IC50 | - | nucleotide incorporation / radiometric | RT-Y188L | 0.05–0.1 µM
O=[N+]([O-])c1ccc2c(c1)CN(c1nn3c(C4CC4)nnc3c3ccccc13)CC2 | IC50 | 98US_MSC5016 | RT activity / fluorescence | - | 7.02 µM
CCN1c2ncc(CCc3cn[nH]c3)cc2C(=O)Nc2c(C)ccnc21 | IC50 | WT | nucleotide incorporation / radiometric | - | <1 µM
O=c1cc(Cc2ccccc2)nc(NCCCCO)[nH]1 | Ki | - | - | RT-K103N | 840 µM
CCN1c2ncc(CCOc3ccc(CC(C)C(=O)O)c4ccccc34)cc2C(=O)N(C)c2ccc(F)nc21 | IC50 | - | nucleotide incorporation / radiometric | RT-K103N Y181C | 0.1–1 µM
Cc1nnc2c3ccccc3c(N3CCc4ncccc4C3)nn12 | IC90 | KER2008 | RT activity / fluorescence | - | 2.63 µM
CCN1c2ncc(CCOc3ccc(CC(=O)O)c4ccccc34)cc2C(=O)Nc2c(C)cc(F)nc21 | IC50 | WT | nucleotide incorporation / radiometric | - | <0.1 µM
CCN1c2ncc(CCOc3ccc(-c4cncc(C(=O)O)c4)cc3C)cc2C(=O)N(C)c2cccnc21 | IC50 | IIIB | nucleotide incorporation / radiometric | RT-K103N Y181C | <0.05 µM
Cc1cc(C2CC2)c2ccccc2c1-n1c(Br)nnc1SCC(=O)Nc1ccc(C(=O)O)cc1Cl | IC50 | - | nucleotide incorporation / radiometric | RT-Y188L | >0.1 µM
CCN1c2ncc(CCOc3ccc(CCC(=O)O)c4ccccc34)cc2C(=O)Nc2c(C)cc(Cl)nc21 | IC50 | WT | nucleotide incorporation / radiometric | - | <0.1 µM
COc1cc2c(cc1OC)CN(c1nn3c(C)nnc3c3ccccc13)CC2 | IC50 | KER2008 | RT activity / fluorescence | - | 0.42 µM
CCN1c2ncc(CCc3cccc(I)c3)cc2C(=O)N(C)c2ccc(Cl)nc21 | IC50 | - | nucleotide incorporation / radiometric | RT-Y181C | <1 µM
O=C(CSc1nnc(Br)n1-c1ccc(C2CC2)cc1C(F)(F)F)Nc1ccc(C(=O)O)cc1Cl | IC50 | - | nucleotide incorporation / radiometric | - | <0.05 µM
CCN1c2ncc(CCOc3ccc(C(=O)O)c4c3CCCC4)cc2C(=O)N(C)c2ccc(C)nc21 | IC50 | - | nucleotide incorporation / radiometric | RT-V106A | >1 µM
CCN1c2ncc(CCOc3ccc(-c4cc(C(=O)O)on4)cc3C)cc2C(=O)N(C)c2cccnc21 | IC50 | IIIB | nucleotide incorporation / radiometric | RT-K103N Y181C | <0.05 µM
CC[C@H](C)[C@H](NC(=O)c1ccc(NC(=O)CSc2nnc(Br)n2-c2ccc(C3CC3)c3ccccc23)c(Cl)c1)C(=O)O | IC50 | - | nucleotide incorporation / radiometric | RT-Y188L | 0.05–0.1 µM
Cc1cc(-c2ccc[n+]([O-])c2)ccc1OCCc1cnc2c(c1)C(=O)N(C)c1cccnc1N2C1CC1 | IC50 | IIIB | nucleotide incorporation / radiometric | RT-K103N Y181C | >0.1 µM
c1ccc2c(c1)CCN(c1nn3c(-c4ccsc4)nnc3c3ccccc13)C2 | IC50 | KER2008 | RT activity / fluorescence | - | 10.1 µM
CCN1c2ncc(CC(O)c3ccncc3)cc2C(=O)N(C)c2ccc(Cl)nc21 | IC50 | WT | nucleotide incorporation / radiometric | - | <1 µM